# Patent US12419856B1, “Method of treating middle east respiratory syndrome (MERS)” (dated 2025)
# Read-outs that look alike come from different tables or passages of the source.
# What was measured:
# [1] = molecular target: T1, MERS-COV PLpro (Middle East respiratory syndrome-related coronavirus, UniProt K9N7C7, I1717L/K1573G)
# [2] = molecular target: T1, MERS-COV PLpro; details: tested here
# [3] = molecular target: T1, MERS-COV PLpro; details: previous finding of the applicant; cited from earlier work
# [4] = molecular target: T1, MERS-COV PLpro; details: previously tested; cited from earlier work
smiles,measurement,setting,value
O=c1c(O)c(-c2ccc(O)c(O)c2)oc2cc(O)ccc12,lowering of ΔTm,[1]; at IC50 concentration,13 °C
same,"variation in melting temperature (ΔTm), mean",[1]; mean over various concentrations,13.94 °C
CN(C)C(=N)N=C(N)N,effect on Tm of MERS-PLpro (in words),[1]; at any concentration,did not alter the Tm
same,inhibitory effect against MERS-PLpro (in words),[2],not effective
COc1cccc2c1C(=O)c1c(O)c3c(c(O)c1C2=O)C[C@@](O)(C(=O)CO)C[C@@H]3O[C@H]1C[C@H](N)[C@H](O)[C@H](C)O1,increase of melting temperature,[3],20 °C
same,inhibitory effect against MERS-PLpro (in words),[4],showed inhibitory effect
Nc1nc2c(ncn2COCCO)c(=O)[nH]1,inhibitory effect against MERS-PLpro (in words),[4],only the former showed inhibitory effect
